Compound potency records, mixed from different reports. Data source: NIAID ChemDB in PubChem.

Common to all: growth or infection tests; agent: Candida tropicalis; read-out: MIC

An empty or dashed field is not shown. Neighbouring rows are from separate reports.

structure,strain,read by,setting,result
Cc1ccc(C(C)C)cc1,,broth dilution,,11300 µg/mL
CCCCCOc1cccc2cccnc12,,,,50 µg/mL
COc1cc(O)c2c(c1)C(=O)c1c(cc3c(c1O)-c1c(cc(C)c(C(=O)N[C@H](CO)C(=O)O)c1O)[C@H](O[C@@H]1O[C@H](C)[C@H](O)[C@H](O)[C@H]1O)[C@H]3O)C2=O,IFO 10241,,,6.3 µg/mL
COc1cccc2ccc[n+](C)c12.[I-],,,,>100 µg/mL
Oc1cccc2cc(Cl)cnc12,ATCC 750,,24 h,25 µg/mL
CCC(C)CC(C)CCCCCCCCC(=O)N[C@H]1C[C@@H](O)[C@H](NCCN)NC(=O)[C@@H]2[C@@H](O)CCN2C(=O)[C@H]([C@H](O)CCN)NC(=O)[C@H]([C@H](O)[C@@H](O)c2ccc(O)cc2)NC(=O)[C@@H]2C[C@@H](O)CN2C(=O)[C@H]([C@@H](C)O)NC1=O,1490A,broth dilution,,0.5 µg/mL
Cc1cccc(O)c1,,broth dilution,,850 µg/mL
O=c1cc(-c2ccccc2)oc2cc(O)c(O)c(O)c12,ATCC 200956,,,52 µg/mL
C[C@@H]1[C@H](O)[C@@H](C)/C=C/C=C/CC/C=C/C=C/C=C/C=C/C(O[C@H]2O[C@H](C)[C@@H](O)[C@H](N)[C@@H]2O)CC2O[C@](O)(CC(O)C(O)CCC(O)CC(O)CC(O)CC(=O)O[C@H]1C)CC(O)C2C(=O)O,CBS 94,broth dilution,,3.9 µg/mL
C[C@@H](c1ncncc1F)[C@](O)(Cn1cncn1)c1ccc(F)cc1F,Clinical isolates,broth dilution,,0.03 µg/mL
Cc1ccc(C(C)C)cc1O,,broth dilution,,250 µg/mL
CC(=O)N1CCN(c2ccc(OC[C@H]3CO[C@](Cn4ccnc4)(c4ccc(Cl)cc4Cl)O3)cc2)CC1,Clinical isolates,,,16 µg/mL
Oc1cccc2cccnc12,,,,50 µg/mL
O=C(O)c1cc(O)c(O)c(O)c1,ATCC 750,broth dilution,,100 µg/mL
C[C@H]1[C@H](O)[C@@H](C)/C=C/C=C/C=C/C=C/C=C/C=C/C=C/[C@H](O[C@@H]2O[C@H](C)[C@@H](O)[C@H](N)[C@@H]2O)C[C@@H]2O[C@](O)(C[C@@H](O)C[C@@H](O)CC[C@H](O)[C@@H](O)C[C@@H](O)CC(=O)O[C@H]1C)C[C@H](O)[C@H]2C(=O)O,Clinical isolates,broth dilution,,0.5 µg/mL
O=c1c(O)c(-c2ccc(O)c(O)c2)oc2cc(O)cc(O)c12,ATCC 750,broth dilution,,100 µg/mL
Oc1cc(Cl)cc2cc(Cl)cnc12,ATCC 750,,24 h,3.1 µg/mL
COC(=O)[C@]12CCC(C)(C)C=C1C1CCC3[C@@]4(C)CCC(=O)C(C)(C)C4CC[C@@]3(C)[C@]1(C)CC2,ATCC 750,broth dilution,,100 µg/mL
C[C@@H]1[C@H](O)[C@@H](C)/C=C/C=C/CC/C=C/C=C/C=C/C=C/[C@H](O[C@@H]2O[C@H](C)[C@@H](O)[C@H](N)[C@@H]2O)C[C@@H]2O[C@](O)(C[C@@H](O)[C@H](O)CC[C@@H](O)C[C@@H](O)C[C@@H](O)CC(=O)O[C@H]1C)C[C@H](O)[C@H]2C(=O)O,,,,0.5 µg/mL
O=C(Oc1cccc2cccnc12)c1ccccc1,,,,>100 µg/mL
c1ccc([Se][Se]c2ccccc2)cc1,,broth dilution,,32 µg/mL
Cc1ccccc1O,,broth dilution,,1050 µg/mL
CCC(C)n1ncn(-c2ccc(N3CCN(c4ccc(OC[C@H]5CO[C@](Cn6cncn6)(c6ccc(Cl)cc6Cl)O5)cc4)CC3)cc2)c1=O,Clinical isolates,broth dilution,,0.06 µg/mL
Oc1c(Cl)ccc2cccnc12,ATCC 750,,24 h,6.2 µg/mL
Oc1ccccc1,,broth dilution,,>45260 µg/mL
CN(C/C=C/C#CC(C)(C)C)Cc1cccc2ccccc12,27 strains,,,11.89 µg/mL
CCCCCCCCOc1ccc(-c2ccc(C(=O)NC3CC(NCCN)CNC(=O)[C@@H]4[C@@H](O)[C@@H](C)CN4C(=O)[C@@H](CO)NC(=O)[C@H]([C@H](O)Cc4ccccc4)NC(=O)[C@@H]4C[C@@H](O)CN4C(=O)[C@H]([C@@H](C)O)NC3=O)cc2)cc1,NEM_7114236,resazurin,,2.5 µg/mL
O=c1c(O)c(-c2ccccc2)oc2cc(O)cc(O)c12,,broth dilution,,160 µg/mL
COc1ccccc1O,,broth dilution,,10 µg/mL
COc1cc(O)c2c(c1)OC(c1ccc(O)cc1)CC2=O,ATCC 13803,broth dilution,,630 µg/mL

3 of the rows above, restated:

structure,strain,read by,setting,result
C[C@@H]1[C@H](O)[C@@H](C)/C=C/C=C/CC/C=C/C=C/C=C/C=C/[C@H](O[C@@H]2O[C@H](C)[C@@H](O)[C@H](N)[C@@H]2O)C[C@@H]2O[C@](O)(C[C@@H](O)[C@H](O)CC[C@@H](O)C[C@@H](O)C[C@@H](O)CC(=O)O[C@H]1C)C[C@H](O)[C@H]2C(=O)O,,,,0.5 µg/mL
COc1cc(O)c2c(c1)OC(c1ccc(O)cc1)CC2=O,ATCC 13803,broth dilution,,630 µg/mL
C[C@@H]1[C@H](O)[C@@H](C)/C=C/C=C/CC/C=C/C=C/C=C/C=C/C(O[C@H]2O[C@H](C)[C@@H](O)[C@H](N)[C@@H]2O)CC2O[C@](O)(CC(O)C(O)CCC(O)CC(O)CC(O)CC(=O)O[C@H]1C)CC(O)C2C(=O)O,CBS 94,broth dilution,,3.9 µg/mL